According to US11919880B2, “HCV protease inhibitors” (The Regents of the University of California, priority 2020, dated 2024):
“And” between values parts separate entries of the source, which are not always exact repeats. Equal values may be shown once. Read-outs that look alike come from different tables or passages of the source.

Test system: sub-genomic HCV GT1b replicon (BM4-5 FEO), GT1b WT
Assay: HCV replicon assay (luciferase antiviral efficacy)
Format: cell-based, hepatitis C virus
Experimental: The 20 compounds from class C were tested […] for inhibition of viral replication (GT1b wild-type) in BM4-5 FEO cells and for mammalian cell cytotoxicity. The numbers of virus particles were evaluated by quantifying luciferase produced during the virus life cycle^41 while toxicity was evaluated using a cell viability assay. […] Prior to additional biochemical studies, several key chemical properties for each of the Class C molecules were determined.
Replicon construct. The BM4-5 replicon is a sub-genomic HCV GT1b replicon that contains adaptive mutation of serine in the NS5A region^41. The firefly luciferase gene was added into the BM4-5 replicon to generate BM4-5 FEO replicon. The construction procedures have been previously described^42.
Luciferase antiviral efficacy and cells viability assays. BM4-5 FEO replicon approximately 10,000 cells in 100 μL of medium were seeded into 96-well plates and incubate for 6 h for attachment. Then, the compounds were added at to the wells in specific concentration and incubate for 48 h. The luciferase assay (Bright-Glo; Promega) was carried out according to the manufacturer's instructions. Luciferase activity was determined using a microplate luminometer (Veritas microplate luminometer; Turner Biosystems). For cells viability assays, BM4-5 FEO at the density 10,000 cells in 100 μL medium was incubated at 37° C. for 6 h for attachment, then the compounds were added and incubated for another 48 hours. The number of living cells were measured by Cell Titer-blue assay (Promega). The fluorescence absorption (560Ex/590Em) for 96-well plate was read by Benchmark Scientific MR9600 with. The activity and toxicity of each compound were measured by at least six different concentrations in triplicate.

## CC1CCCCN1CCCNC(=O)C(Cc1c[nH]c2ccc(F)cc12)NC(=O)Nc1cc(Cl)ccc1Cl (stereo not drawn) [Compound 2]
Ratio of LC50/EC50
  Therapeutic Index: 1.13

## CC1CCCCN1CCCNC(=O)C(Cc1c[nH]c2ccccc12)NC(=O)Nc1ccc(N(C)C)cc1 (stereo not drawn) [Compound 6]
Ratio of LC50/EC50
  Therapeutic Index: >1.58

## Cc1ccc2[nH]cc(CC(NC(=O)Nc3cc(Cl)ccc3Cl)C(=O)NCCCN3CCCCC3C)c2c1 (stereo not drawn) [Compound 7]
Ratio of LC50/EC50
  Therapeutic Index: 5.62

## CC(=O)c1cccc(NC(=O)NC(Cc2c[nH]c3ccccc23)C(=O)NCCCN2CCCCC2C)c1 (stereo not drawn) [Compound 8]
Ratio of LC50/EC50
  Therapeutic Index: >9.16

## COc1ccc(OC)c(NC(=O)NC(Cc2c[nH]c3ccccc23)C(=O)NCCCN2CCCCC2C)c1 (stereo not drawn) [Compound 9]
  Therapeutic Index: >1.95

## COc1ccc2[nH]cc(CC(NC(=O)Nc3cc(Cl)ccc3Cl)C(=O)NCCCN3CCCCC3C)c2c1 (stereo not drawn) [Compound 10]
Ratio of LC50/EC50
  Therapeutic Index: >3.03

## O=C(Nc1ccccc1Br)NC(Cc1c[nH]c2ccccc12)C(=O)NCCCNC1CC2CCC1C2 (stereo not drawn) [Compound 11]
Ratio of LC50/EC50
  Therapeutic Index: 1.11

## CC1CCCCN1CCCNC(=O)C(Cc1c[nH]c2ccccc12)NC(=O)Nc1c(F)cc(Br)cc1F (stereo not drawn) [Compound 13]
Ratio of LC50/EC50
  Therapeutic Index: 0.34

## CC1CCCC(C)N1NCCCNC(=O)C(Cc1c[nH]c2ccccc12)NC(=O)Nc1ccccc1Br (stereo not drawn) [Compound 14]
Ratio of LC50/EC50
  Therapeutic Index: 17.94

## O=C(Nc1cccc(Br)c1)NC(Cc1c[nH]c2ccccc12)C(=O)NCCCNC1CCCCCC1 (stereo not drawn) [Compound 15]
Ratio of LC50/EC50
  Therapeutic Index: 3.64

## CCOC(=O)C1CCCCN1CCCNC(=O)C(Cc1c[nH]c2ccccc12)NC(=O)Nc1ccccc1Br (stereo not drawn) [Compound 17]
Ratio of LC50/EC50
  Therapeutic Index: 0.91

## O=C(Nc1ccccc1Br)NC(Cc1c[nH]c2ccccc12)C(=O)NCCCNC1CCCCC1O (stereo not drawn) [Compound 18]
Ratio of LC50/EC50
  Therapeutic Index: 8.11

## O=C(Nc1ccccc1Br)NC(Cc1c[nH]c2ccccc12)C(=O)NCCCNC1CCC(O)CC1 (stereo not drawn) [Compound 19]
Ratio of LC50/EC50
  Therapeutic Index: >3.06

## O=C(Nc1cccc(Br)c1)N[C@@H](Cc1c[nH]c2ccccc12)C(=O)NCCCN1CCCCC1 [Compound 21]
Ratio of LC50/EC50
  Therapeutic Index: 22.72

## CC(C)c1ccc(NC(=O)N[C@@H](Cc2c[nH]c3ccccc23)C(=O)NCCCN2CCCCC2)cc1 [Compound 22]
Ratio of LC50/EC50
  Therapeutic Index: 73.4 and 73.39
